The target of the test is MERS-CoV N-NTD (Betacoronavirus England 1, UniProt K9N4V7). Nature of the test: X-ray crystallography. The following applies: co-crystals, 2 mM ligand, pH 5.5, 20 °C; predicted allosteric Site 1.

The structures appear in SMILES notation.

We go through two molecules from article PMC9061996, “Targeting the N-Terminus Domain of the Coronavirus Nucleocapsid Protein Induces Abnormal Oligomerization via Allosteric Modulation” (2022).

Regarding `COCCOc1ccc2[nH]ccc2c1`, the X-ray crystallography was 6LZ8 (N:P4-4 complex).
Regarding `FCCOc1ccc2[nH]ccc2c1`, the X-ray crystallography is 6LZ6 (N:P4-3 complex).
